Measurements reported in paper PMC3161980, “Modulation of NKp30- and NKp46-Mediated Natural Killer Cell Responses by Poxviral Hemagglutinin” (PLoS Pathogens, 2011).

B1: NKp30-Fc: long (canonical) ectodomain of NKp30 fused to the Fc portion of human IgG1 (Fc fusion)
chain: LWVSQPPEIRTLEGSSAFLPCSFNASQGRLAIGSVTWFRDEVVPGKEVRNGTPEFRGRLAPLASSRFLHDHQAELHIRDVRGHDASIYVCRVEVLGLGVGTGNGTRLVVEKEHPQLG
notes: also called NKp30(long)-Fc; NKp30-hIgG1-Fc
B2: NKp46-Fc: ectodomain of NKp46 fused to the Fc portion of human IgG1 (Fc fusion)
chain: QQQTLPKPFIWAEPHFMVPKEKQVTICCQGNYGAVEYQLHFEGSLFAVDRPKPPERINKVQFYIPDMNSRMAGQYSCIYRVGELWSEPSNLLDLVVTEMYDTPTLSVHPGPEVISGEKVTFYCRLDTATSMFLLLKEGRSSHVQRGYGKVQAEFPLGPVTTAHRGTYRCFGSYNNHAWSFPSEPVKLLVTGDIENTSLAPEDPTFPADTWGTYLLTTETGLQKDHALWDHTAQNLLR
notes: also called NKp46-hIgG1-Fc; soluble NKp46

Biological target: soluble recombinant HA(VV)-V5-His6 (ectodomain of HA from VV strain WR) (vaccinia virus strain Western Reserve …, UniProt Q01218 17-277)
Assay: ELISA

Binder	binding result
B1	binds
B2	binds
